Measured values taken from publication PMC3251565, “Effect of P to A Mutation of the N-Terminal Residue Adjacent to the Rgd Motif on Rhodostomin: Importance of Dynamics in Integrin Recognition” (2012).

These substances were tested against integrin α5β1 on K562 cells (human (endogenous in K562)) (UniProt P08648).

Substance | IC50 of inhibition of K562 cell (integrin α5β1) adhesion to fibronectin
Rhodostomin P48F mutant (natural protein) | 282 nM
Rhodostomin P48G mutant (natural protein) | 92.2 nM
Rhodostomin P48I mutant (natural protein) | 282 nM
Rhodostomin P48L mutant (natural protein) | 283 nM
Rhodostomin P48W mutant (natural protein) | 193 nM
Rhodostomin P48Y mutant (natural protein) | 311 nM

Biological target: integrin α5β1 on K562 cells (human (endogenous in K562)) (UniProt P08648)
Remark: another data set of the same source

Substance | IC50 of inhibition of K562 cell (integrin α5β1) adhesion to fibronectin
Rhodostomin M52D/P53L mutant (natural protein) | 3020 nM
Rhodostomin M52D/P53M mutant (natural protein) | 4050 nM
Rhodostomin M52G/P53W mutant (natural protein) | 1240 nM
Rhodostomin M52N mutant (natural protein) | 357 nM
Rhodostomin M52W mutant (natural protein) | 404 nM
Rhodostomin P48A/M52D/P53L mutant (natural protein) | 527 nM
Rhodostomin P48A/M52D/P53M mutant (natural protein) | 351 nM
Rhodostomin P48A/M52G/P53W mutant (natural protein) | 191 nM
Rhodostomin P48A/M52N mutant (natural protein) | 44.1 nM
Rhodostomin P48A/M52W mutant (natural protein) | 52 nM
